Measurements reported in publication PMC10221217 (Viruses, 2023).

Chains of the proteins cited; added tags and fusions are not shown.
UniProt P61073, whole entry: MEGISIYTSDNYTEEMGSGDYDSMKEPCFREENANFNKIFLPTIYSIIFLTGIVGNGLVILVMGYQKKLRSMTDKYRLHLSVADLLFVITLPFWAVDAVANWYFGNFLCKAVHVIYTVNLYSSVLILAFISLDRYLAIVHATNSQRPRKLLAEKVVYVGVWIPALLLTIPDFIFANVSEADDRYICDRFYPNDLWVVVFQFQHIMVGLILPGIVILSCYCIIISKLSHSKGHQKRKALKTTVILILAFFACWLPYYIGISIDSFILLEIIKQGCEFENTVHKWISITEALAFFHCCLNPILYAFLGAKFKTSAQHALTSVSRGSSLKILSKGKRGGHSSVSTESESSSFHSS

Target: T1, CXCR4 (Homo sapiens, UniProt P61073)
T1 construct: expressed in transfected cells
Test: CXCR4 competitive binding assay (anti-CXCR4 mAb 12G5)

CC[C@@H](C)[C@H]1NC(=O)[C@@H](CO)NC(=O)[C@@H](CC(C)C)NC(=O)[C@@H](CCCNC(=N)N)NC(=O)[C@@H](CCCNC(=N)N)NC(=O)[C@@H](CCCNC(=N)N)NC(=O)[C@@H]([C@H](C)O)NC(=O)[C@@H](CC(N)=O)NC(=O)[C@@H](CC(N)=O)NC(=O)[C@@H](CC(N)=O)NC(=O)[C@H]2CCCN2C(=O)[C@@H](CCCNC(=N)N)NC(=O)[C@@H]([C@H](C)O)NC(=O)[C@H](NC(=O)[C@@H](CC(N)=O)NC(=O)[C@H](NC(=O)[C@H](NC(=O)[C@H](NC(=O)[C@@H](CO)NC(=O)[C@H](N)CCC(=O)O)C(C)C)C(C)C)[C@H](C)CC)CSSC[C@H](C(=O)N[C@H](CC(N)=O)C(=O)N[C@@H](C(=O)N[C@H](CO)C(N)=O)[C@H](C)CC)NC(=O)[C@@H](Cc2c[nH]cn2)NC(=O)[C@@H](C)NC(=O)[C@@H](CCC(N)=O)NC(=O)[C@@H](CCCNC(=N)N)NC(=O)[C@@H]([C@H](C)CC)NC(=O)[C@@H](CC(=O)O)NC(=O)CNC(=O)[C@@H]([C@H](C)CC)NC(=O)[C@@H]([C@H](C)CC)NC(=O)[C@@H](CC(N)=O)NC(=O)[C@@H](CCCNC(=N)N)NC(=O)[C@@H](CCCNC(=N)N)NC(=O)[C@@H](C)NC(=O)[C@@H](Cc2ccc(O)cc2)NC(=O)[C@@H](Cc2ccccc2)NC(=O)[C@@H](C)NC(=O)[C@@H](CCCNC(=N)N)NC(=O)CNC(=O)[C@H]2CCCN2C(=O)CNC1=O [D-V3 loop peptide]
comparison of CXCR4 binding of L- and D-peptide (in words) (anti-CXCR4 antibody 12G5 competitive binding): comparable binding recognition to the CXCR4 receptor | CXCR4 selectivity over CCR5 (in words) (concluded from CXCR4 and CCR5 competitive binding): CXCR4 binding was selective
